Results of unrelated studies side by side (data: NIAID ChemDB).

Common to all: growth or infection tests; species: Mycobacterium tuberculosis

ECn: concentration that inhibits the pathogen or its effect by n%.

smiles	measure	mutations	dose	read by	strain or isolate	result
CN(C)c1cccc(-c2cc(C(F)(F)F)nc3c(C(F)(F)F)cccc23)c1	MIC	-	-	-	-	>128 µM
NNC(=O)c1ccncc1	MIC	-	-	broth dilution	Beijing	0.06 µg/mL
CC(=O)NC1CONC1=O	inhibition	-	12.5 µg/mL	BACTEC	H37Rv	-3%
CCCCCCCCN1C(=O)C=C(C)C1=O	MIC	-	-	-	Clinical isolate (isoniazid-resistant)	≤20 µg/mL
CCCCCCCCCCCCNC(CCO)C1OC2OC(C)(C)OC2[C@@H]1OC	MIC	-	-	-	H37Ra	25 µg/mL
C=CCn1c(-c2ccc(N=Nc3c(C)[nH]n(-c4ccccc4)c3=O)cc2)n[nH]c1=S	EC50	-	-	-	H37Rv	>12.5 µg/mL
CC1COc2c(N3CCN(C)CC3)c(F)cc3c(=O)c(C(=O)O)cn1c23	MIC	-	-	broth dilution	EMB-resistant 17003	0.5 µg/mL
Cc1cc(-c2cc3c(cc2F)c(=O)c(C(=O)O)cn3C2CC2)cc(C)n1	MIC	-	-	-	1685-6	0.5 µg/mL
C=C1CC(=O)N(CCCCCCCC)C1=O	MIC	-	-	-	H37Rv	≤20 µg/mL
NC(Cc1ccc(O)cc1)C(=O)N/N=C/c1ccccc1O	inhibition	-	12.5 µg/mL	BACTEC	H37Rv	-33%
C/C=C/c1ccc2oc(-c3ccc(OC)c(OC)c3)c(C)c2c1	MIC	isoniazid rifampicin pyrazinamide resistant	-	resazurin / absorbance	Clinical isolate 73-A	1.9 µg/mL
CO[C@H]1/C=C/O[C@@]2(C)Oc3c(C)c(O)c4c(O)c(c5c(c4c3C2=O)NC2(CCN(CC(C)C)CC2)N=5)=NC(=O)/C(C)=C\C=C\[C@H](C)[C@H](O)[C@@H](C)[C@@H](O)[C@@H](C)[C@H](OC(C)=O)[C@@H]1C	MIC	-	-	-	31 (rifampicin-resistant)	>2 µg/mL
CCN(CC)CCCC(C)Nc1cc(/C=C/c2ccc(Cl)cc2)nc2ccc(N(C)C)cc12	inhibition	-	12.5 µg/mL	BACTEC	H37Rv	99%
O=C1NNS(=O)(=O)c2ccccc21	MIC	-	-	-	-	>200 µg/mL
O[C@@H](c1cc(C(F)(F)F)nc2c(C(F)(F)F)cccc12)[C@@H]1CCCCN1Cc1ccncc1	MIC	-	-	-	-	31 µM
c1ccc(-c2c(C(c3ccccc3)n3ccnc3)cnn2-c2ccccc2)cc1	MIC90	-	-	-	ATCC 35822 (isoniazid-resistant)	86.6 µM
CCOC(=O)Nc1cc2[nH]c(-c3ccccc3F)nc2c(N(CCc2ccccc2)Cc2ccccc2)n1	EC50	-	-	-	H37Rv	<12.5 µg/mL
Fc1ccc(-c2c(C(c3ccccc3)n3ccnc3)cnn2-c2ccc(F)cc2F)cc1	MIC90	-	-	-	ATCC 27294	>100 µM
C=CCn1c(-c2ccc(N=N/C(C(=O)OCC)=C(/C)O)cc2)n[nH]c1=S	inhibition	-	12.5 µg/mL	-	H37Rv	0%
COC(=O)/C=C1\Nc2c(n(C)c(=O)n(C)c2=O)NC1=O	MIC bound	-	-	BACTEC	H37Rv	>12.5 µg/mL
CC(C)=NNC(=O)c1ccccc1Cl	MIC	-	-	-	-	100 µg/mL
O=C([C@@H](O)CO)N1CC=C(c2c(F)cc(N3C[C@H](COc4ccon4)OC3=O)cc2F)CC1	MIC	T460C Cys154Arg	-	-	AZD5847-resistant 4.1	16 µg/mL
CCOC(=O)Nc1cc(N)c2ncn(-c3ccccc3)c2n1	EC50	-	-	-	H37Rv	<12.5 µg/mL
O/N=C\c1cc(C(F)(F)F)nc2c(C(F)(F)F)cccc12	MIC	-	-	-	-	>128 µM
O=C(NNC(=O)c1cccc(Cl)c1)c1cccc(Cl)c1	MIC	-	-	-	-	>200 µg/mL
CCOC(=O)Nc1cc(N(C)CC(=O)c2ccc(O)cc2)c([N+](=O)[O-])c(N)n1	inhibition	-	12.5 µg/mL	-	H37Rv	2%
NS(=O)(=O)c1ccc(CN2CCCC[C@H]2[C@@H](O)c2cc(C(F)(F)F)nc3c(C(F)(F)F)cccc23)cc1	MIC	-	-	-	-	15 µM
CO[C@H]1/C=C/O[C@@]2(C)Oc3c(C)c(O)c4c(O)c(c(/C=N/N5CCN(C6CCCC6)CC5)c(O)c4c3C2=O)NC(=O)/C(C)=C\C=C\[C@H](C)[C@H](O)[C@@H](C)[C@@H](O)[C@@H](C)[C@H](OC(C)=O)[C@@H]1C	MIC	-	-	-	Isolate 910328 rifampicin-resistant	>32 µg/mL
CCCCCCCOC(=O)n1[nH]c(=O)c2ccccc2c1=O	MIC	-	-	-	-	>200 µg/mL
CCCCCCCCCN1C(=O)CC(CC)C1=O	MIC	-	-	-	H37Rv	≤20 µg/mL
CCOc1ccc(C(=O)N/N=C/c2ccc(NC(C)=O)cc2)cc1	MIC	-	-	-	-	>200 µg/mL
CCOC(=O)Nc1cc(N)c2c(n1)OCC(N=[N+]=[N-])=N2	inhibition	-	12.5 µg/mL	-	H37Rv	0%
CO[C@H]1/C=C/O[C@@]2(C)Oc3c(C)c(O)c4c(=O)c(c5oc6cc(N7CCN(CC(C)C)CC7)cc(=O)c6nc5c4c3=C2O)NC(=O)/C(C)=C\C=C\[C@H](C)[C@H](O)[C@@H](C)[C@@H](O)[C@@H](C)[C@H](OC(C)=O)[C@@H]1C	MIC	-	-	-	12 (pyrazinamide-resistant)	0.0019 µg/mL
Nc1ccc2c(c1)Oc1ccc(N)cc1O2	MIC bound	-	-	BACTEC	H37Rv	>12.5 µg/mL
Clc1ccc(-c2c(C(c3ccccc3)n3ccnc3)cnn2-c2ccccc2)cc1	MIC50	-	-	-	ATCC 35822 (isoniazid-resistant)	≥100 µM
O=C1c2ccccc2N2Oc3ccccc3C12c1ccccc1	MIC bound	-	-	resazurin	H37Rv	>6.25 µg/mL
NNC(=O)c1ccncc1	MIC	-	-	-	Isolate UT3181 (deletion)	>256 µg/mL
O=C(Cc1ccccc1)NNc1nc(NNC(=O)c2ccncc2)nc(Nc2ccc(Cl)cc2)n1	inhibition	-	0.5 µM	BACTEC	-	0%
CO[C@@H]1C(C(CCO)NC2CC2)OC2OC(C)(C)OC21	MIC	-	-	-	H37Rv	50 µg/mL
O=[n+]1c2ccccc2n([O-])c2ccccc21.[Cl][Cu][Cl]	MIC	-	-	-	PZA-R	1.6 µg/mL
Cc1[nH][nH]c(=O)c1N=Nc1ccc(C(=O)N/N=C/c2ccc(F)cc2)cc1	EC50	-	-	-	H37Rv	>12.5 µg/mL
Fc1ccccc1-c1c(C(c2ccccc2)n2ccnc2)cnn1-c1ccccc1	MIC50	-	-	-	ATCC 35820 (streptomycin-resistant)	≥100 µM
C=C1CC(O)C2C(=C)C(=O)OC2C2C(C)C(=O)CC12	inhibition	-	12.5 µg/mL	BACTEC	H37Rv	14%
CCCCCCCCCCCCCCCCCCNC(CCO)C1OC2OC(C)(C)OC2[C@@H]1OCc1ccccc1	MIC	-	-	-	H37Rv	12.5 µg/mL
C[C@@H]1CN(c2c(F)c(N)c3c(=O)c(C(=O)O)cn(C4CC4)c3c2F)C[C@H](C)N1	MIC	-	-	-	900145	0.2 µg/mL
O=C(N/N=C/c1ccccc1)c1ccc(Nc2ccc(-c3ccccc3)cc2)cc1	MIC	-	-	-	-	>10 µg/mL
CC(=O)/C(=C\c1ccc([N+](=O)[O-])o1)C(=O)CCN(C)C	inhibition	-	12.5 µg/mL	BACTEC	H37Rv	81%
Fc1ccc(-c2c(C(c3ccccc3)n3ccnc3)cnn2-c2ccccc2)cc1	MIC50	-	-	-	ATCC 35837 (ethambutol-resistant)	≥100 µM
CCCCCCCCCN1C(=O)CC(SCCNC(=O)c2ccc(C(C)(C)C)cc2)C1=O	MIC	-	-	-	H37Rv	≤20 µg/mL
Cc1ccc(-c2nc3c(C)nc(-c4ccccc4)nc3n2Nc2ccccc2)cc1	MIC bound	-	-	BACTEC	H37Rv	>12.5 µg/mL
Fc1ccccc1-c1c(C(c2ccccc2)n2ccnc2)cnn1-c1ccccc1F	MIC90	-	-	-	ATCC 27294	>100 µM
CCCCCCCCCCCCCCCCC1OC2OC(C)(C)OC2[C@@H]1OC	MIC	-	-	-	H37Ra	12.5 µg/mL
O=C(NOC(=O)c1ccccc1)c1ccccc1	MIC	-	-	-	-	>200 µg/mL
CC1OC(=O)c2cc3ccccc3nc21	MIC bound	-	-	BACTEC	H37Rv	>12.5 µg/mL
CO[C@H]1/C=C/O[C@@]2(C)Oc3c(C)c(O)c4c(O)c(c5c(c4c3C2=O)NC2(CCN(CC(C)C)CC2)N=5)=NC(=O)/C(C)=C\C=C\[C@H](C)[C@H](O)[C@@H](C)[C@@H](O)[C@@H](C)[C@H](OC(C)=O)[C@@H]1C	MIC	-	-	-	Strain 83 84	2 µg/mL
Cc1ccc2nc(CC(O)(c3ccccc3)c3ccccc3)ccc2c1	inhibition	-	12.5 µg/mL	BACTEC	H37Rv	-48%
CCCCCCCCCNC1CC(=O)N(CCCCCCCCC)C1=O	MIC	-	-	-	H37Ra	≤20 µg/mL
CC1(C)OC2O[C@H](C(CCO)NC3CC3)C3OC(C)(C)OC3C2O1	MIC	-	-	-	H37Rv	50 µg/mL
CCOC(=O)Nc1cc(NCc2ccccc2)c(N)c(N)n1	EC50	-	-	-	H37Rv	>12.5 µg/mL
O=C1C=CC(=O)N1c1ccc(N2CCCCC2)cc1	MIC	-	-	-	Clinical isolate (isoniazid-resistant)	≤20 µg/mL
Clc1ccc(-c2c(C(c3ccccc3)n3ccnc3)cnn2-c2ccc(Cl)cc2Cl)cc1	MIC50	-	-	-	ATCC 35828 (pyrazinamide-resistant)	73.1 µM
CC1(C)OC2O[C@H](C(CCO)NC3CCCCC3)C3OC(C)(C)OC3C2O1	MIC	-	-	-	H37Rv	12.5 µg/mL
Fc1ccc(-n2ncc(C(c3ccccc3)n3ccnc3)c2-c2ccccc2)cc1	MIC90	-	-	-	ATCC 35820 (streptomycin-resistant)	≥100 µM
NNC(=O)c1ccncc1	MIC	-	-	resazurin / absorbance	Clinical isolate 49	0.03 µg/mL
CCOC(=O)/C(N=Nc1ccc(-c2n[nH]c(=O)n2-c2ccccc2)cc1)=C(\C)O	MIC	-	-	-	H37Rv	>12.5 µg/mL
C/C=C/c1ccc2c(c1)[C@@H](C)[C@H](c1ccc(OC)cc1)O2	MIC	isoniazid and streptomycin resistant	-	resazurin / absorbance	Clinical isolate 91	7.8 µg/mL
CCCCCCCCN1C(=O)CC(SCC(N)C(=O)O)C1=O	MIC	-	-	-	H37Ra	≤20 µg/mL
O=c1[nH]ncc(Cl)c1Cl	inhibition	-	6.25 µg/mL	resazurin	-	37%
O=C(NN=C1CCCC1)c1ccccc1	MIC	-	-	-	-	1 µg/mL
O=C(Nc1cccc2c1C(=O)c1cccc(NC(=O)c3ccc(C(=O)Nc4cccc5c4C(=O)c4cccc(NC(=O)c6ccccc6)c4C5=O)cc3)c1C2=O)c1ccccc1	MIC bound	-	-	BACTEC	H37Rv	>12.5 µg/mL
CCCCCCCCCN1C(=O)CC(SCCNC(=O)C2CCCCC2)C1=O	MIC	-	-	-	H37Ra	≤20 µg/mL
CC(C)(C)OC(=O)C(C1NC2C(=O)OCC2(CO)S1)N1C(=O)c2ccccc2C1=O	MIC bound	-	-	BACTEC	H37Rv	>12.5 µg/mL
Fc1ccc(-c2c(C(c3ccccc3)n3ccnc3)cnn2-c2ccc(F)cc2)cc1	MIC50	-	-	-	ATCC 27294	≥100 µM
CCCCCCCCCN1C(=O)CC(C)C1=O	MIC	-	-	-	H37Ra	≤20 µg/mL
CCCCCCCCCCCCNC[C@H]1OC2OC(C)(C)OC2C2OC(C)(C)OC21	MIC	-	-	-	H37Rv	6.25 µg/mL
O=C(Nc1ccc(C2=NCCCN2)cc1)c1ccc(C(=O)Nc2ccc(C3=NCCCN3)cc2)nc1	inhibition	-	12.5 µg/mL	BACTEC	H37Rv	98%
NNC(=O)c1ccc(N)cc1	MIC	-	-	-	-	40 µg/mL
CCS(=O)(=O)c1ccc(NP(=O)(Nc2ccc(S(=O)(=O)CC)cc2)c2ccc([N+](=O)[O-])cc2)cc1	inhibition	-	6.25 µg/mL	BACTEC	H37Rv	0%
CC(=O)n1nc(-c2ccc(N=Nc3c(C)[nH]n(-c4ccccc4)c3=O)cc2)n(-c2ccccc2)c1=S	inhibition	-	12.5 µg/mL	-	H37Rv	51%
CCCCCCCCCCCCCCCCNC(CCO)[C@H]1OC2OC(C)(C)OC2C2OC(C)(C)OC21	MIC	-	-	-	H37Rv	3.12 µg/mL
COc1cccc2c1C(=O)c1c(O)c3c(c(O)c1C2=O)C[C@@](O)(C(=O)CSc1nnc(C)s1)C[C@@H]3OC1CC(N)C(O)C(C)O1.Cl	MIC	-	-	BACTEC	H37Rv	≥12.5 µg/mL
CO[C@H]1/C=C/O[C@@]2(C)Oc3c(C)c(O)c4c(O)c(c(/C=N/N5CCN(C)CC5)c(O)c4c3C2=O)NC(=O)/C(C)=C\C=C\[C@H](C)[C@H](O)[C@@H](C)[C@@H](O)[C@@H](C)[C@H](OC(C)=O)[C@@H]1C	MIC	-	-	-	PR503	≤0.02 µg/mL
Cc1ncc([N+](=O)[O-])n1CCOC(N)=O	MIC bound	-	-	resazurin	H37Rv	>6.25 µg/mL
CCCCCCCCCCCCCCCCNC(CCO)C1OC2OC(C)(C)OC2[C@@H]1OCc1ccccc1	MIC	-	-	-	H37Ra	12.5 µg/mL

A second listing of 6 rows from above:

smiles | measure | mutations | dose | read by | strain or isolate | result
O=C(Cc1ccccc1)NNc1nc(NNC(=O)c2ccncc2)nc(Nc2ccc(Cl)cc2)n1 | inhibition | - | 0.5 µM | BACTEC | - | 0%
Cc1ccc(-c2nc3c(C)nc(-c4ccccc4)nc3n2Nc2ccccc2)cc1 | MIC bound | - | - | BACTEC | H37Rv | >12.5 µg/mL
CC(=O)/C(=C\c1ccc([N+](=O)[O-])o1)C(=O)CCN(C)C | inhibition | - | 12.5 µg/mL | BACTEC | H37Rv | 81%
Fc1ccc(-c2c(C(c3ccccc3)n3ccnc3)cnn2-c2ccc(F)cc2F)cc1 | MIC90 | - | - | - | ATCC 27294 | >100 µM
O=C1C=CC(=O)N1c1ccc(N2CCCCC2)cc1 | MIC | - | - | - | Clinical isolate (isoniazid-resistant) | ≤20 µg/mL
CC1COc2c(N3CCN(C)CC3)c(F)cc3c(=O)c(C(=O)O)cn1c23 | MIC | - | - | broth dilution | EMB-resistant 17003 | 0.5 µg/mL

Conditions beyond the fields shown may differ between rows. Percent inhibition refers to the dose given; in toxicity tests it is the harm to the cells. MIC bound: limit read from a one-dose screen. An empty or dashed field is not shown. A number after MIC or MFC names an inhibition level or a share of isolates.